Measured data: PubChem BioAssay AID624099 (ICCB-Longwood, 2012)
Shown is an unselected part of about 21,000 reagents. Over the whole deposit, 497 (2.4%) are marked active. 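Higher z means weaker E2 silencing; only reporter increases were scored, and knock-downs that hurt cell survival may mask genuine repressor factors.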 Unmarked entries are inactive. Reagent sequences are not shown.

Screen: 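Host factors E2 relies on to silence an HPV18 LCR reporter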 (primary screen)
System: human C33A cervical carcinoma cells (HPV-negative) stably expressing BPV1 E2 and an HPV18 LCR luciferase reporter
Reagents: siRNA pool against human genes, 40 nM
Time to read-out: 72 h
Measured: 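Per-well luciferase luminescence, z-scored on each plate against the plate mean and SD with control wells left out, then averaged across three replicate plates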
Direction: mean z-score and z-score: higher = stronger reporter signal, weaker E2 silencing
Active means: 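Hit if mean z-score reaches 2 and two or more of three replicate z-scores also reach 2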

IVNS1ABP showed mean z-score -0.01; z-score, replicate A = 0.17; z-score, replicate B = -0.23; z-score, replicate C = 0.04.
NOSIP showed mean z-score 0.72; z-score, replicate A = 0.69; z-score, replicate B = 0.45; z-score, replicate C = 1.03.
For TAP2 the deposit lists mean z-score 0.05; z-score, replicate A = -0.04; z-score, replicate B = 0.11; z-score, replicate C = 0.08.
JAG2 scored mean z-score -0.27; z-score, replicate A = -0.3; z-score, replicate B = -0.38; z-score, replicate C = -0.12.
DCAF1 gave mean z-score -2.26; z-score, replicate A = -2.12; z-score, replicate B = -2.31; z-score, replicate C = -2.35.

Part of the list above, reformatted.
gene,mean z-score,"z-score, replicate A","z-score, replicate B","z-score, replicate C"
JAG2,-0.27,-0.3,-0.38,-0.12
DCAF1,-2.26,-2.12,-2.31,-2.35

Additional reagents follow:
Depletion of DLC1 gave: mean z-score -0.03; z-score, replicate A = -0.16; z-score, replicate B = 0.21; z-score, replicate C = -0.14.
For SLC4A2 the deposit lists mean z-score 1.05; z-score, replicate A = 0.92; z-score, replicate B = 0.94; z-score, replicate C = 1.28.
MCTP2 gave mean z-score -0.91; z-score, replicate A = -1.23; z-score, replicate B = -0.61; z-score, replicate C = -0.89.
THOC6 showed mean z-score 0.19; z-score, replicate A = 0.51; z-score, replicate B = 0.37; z-score, replicate C = -0.3.
IRF8 scored mean z-score -0.05; z-score, replicate A = 0.22; z-score, replicate B = -0.1; z-score, replicate C = -0.27.
After knock-down of PHF5A the results were mean z-score -2.84; z-score, replicate A = -3.13; z-score, replicate B = -2.59; z-score, replicate C = -2.81.
For LINC01667, the values are mean z-score 0.39; z-score, replicate A = 0.23; z-score, replicate B = 0.52; z-score, replicate C = 0.42.
